PubChem BioAssay AID1224833 | University of Georgia | 2016
In all, the deposit lists about 12,000 reagents; this is a part drawn at random. Of all reagents, about 5,600 (46%) got an active call. 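Active calls cover z-scores past 1 in both directions, so they include lowered as well as raised rotavirus replication.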

Purpose: 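Human genes whose knock-down alters rotavirus replication in monkey cells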 (primary screen)
Cell system: monkey MA104 kidney cells
Knock-down reagent: siRNA pool against human genes, 50 nM
Timing: 48 h knock-down before infection; read 24 h after infection
Treatment: infection with rotavirus strain RV3 two days after transfection; infectious dose for this stage not given
Read-out: 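Rotavirus antigen per well by fluorescent immunoassay, normalised to non-targeting control wells on each plate and given as a standard z-score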
Reading the numbers: z-score vs non-targeting control: higher = more rotavirus replication than with non-targeting control
Hit rule: In these data the active calls have z-score vs non-targeting control at about -1 or lower, or at about 1 or higher
Meaning of the calls: active = z-score beyond 1 either way; inactive = z-score within 1 of zero

After knock-down of GTF2H3, the screen gave z-score vs non-targeting control -0.811; inactive.
With knock-down of NPIPB15 the results were z-score vs non-targeting control 0.658; inactive.
Silencing of PHLPP1 came out at: z-score vs non-targeting control -1.87; active.
With knock-down of PPP1R3F the results were z-score vs non-targeting control -1.59; active.
ADISSP scored z-score vs non-targeting control 1.21; active.
After knock-down of PNMA1, the screen gave z-score vs non-targeting control 0.308; inactive.
Knock-down of DNAJB1 came out at: z-score vs non-targeting control -0.45; inactive.
For TSR2, the values are z-score vs non-targeting control -0.663; inactive.
After knock-down of CHORDC1, the record shows z-score vs non-targeting control -0.258; inactive.
FARP1 scored z-score vs non-targeting control 1.09; active.
Silencing of ETV3L gave: z-score vs non-targeting control -0.527; inactive.
Silencing of CYB561 resulted in: z-score vs non-targeting control -0.0986; inactive.
Knock-down of ACBD6 came out at: z-score vs non-targeting control -1.64; active.
After knock-down of CCDC43 the results were z-score vs non-targeting control 1.09; active.
Silencing of RBP7 gave: z-score vs non-targeting control -0.988; inactive.
Depletion of TLNRD1 came out at: z-score vs non-targeting control 2.42; active.
Depletion of SARAF resulted in: z-score vs non-targeting control 1.07; active.
After knock-down of GLT8D1, the record shows z-score vs non-targeting control -0.502; inactive.
With knock-down of DIS3, the record shows z-score vs non-targeting control -1.09; active.

Entries above whose target name begins with C or c:
CHORDC1 — z-score vs non-targeting control: -0.258; call: inactive
CYB561 — z-score vs non-targeting control: -0.0986; call: inactive
CCDC43 — z-score vs non-targeting control: 1.09; call: active
